Measurements as given in paper PMC4985751, “Enhanced Cationic Charge is a Key Factor in Promoting Staphylocidal Activity of α-Melanocyte Stimulating Hormone via Selective Lipid Affinity” (Scientific Reports, 2016).

Experiments:
[1] = Trp fluorescence blue shift in bacterial mimic SUVs (7:3); details: DMPC:DMPG (7:3, w/w) SUVs vs 10 mM TES buffer; peptide 12.5 μM, lipid 726 μM (L:P 58:1); 25 °C; excitation 295 nm; three scans averaged
[2] = Trp fluorescence blue shift in bacterial mimic SUVs (1:1); details: DMPC:DMPG (1:1, w/w) SUVs vs 10 mM TES buffer; peptide 12.5 μM, lipid 726 μM (L:P 58:1); 25 °C; excitation 295 nm
[3] = Trp fluorescence blue shift in mammalian mimic SUVs; details: DMPC SUVs vs 10 mM TES buffer; peptide 12.5 μM, lipid 726 μM (L:P 58:1); 25 °C; excitation 295 nm; three scans averaged

Ac-KYKMKHFRWGKPV-NH2 [KKK-MSH]
Blue shift in emission maximum of Trp residue [1]: 11 nm
Blue shift in emission maximum of Trp residue [2]: 12 nm
Blue shift in emission maximum of Trp residue [3]: 0 nm
